Source: ChEMBL document CHEMBL3988442, “University of Dundee, Small-Polar-MMV Screening Library” (2021).

Each number is a percent effect as filed.
The record does not define 0% and 100%; most values in the screen are far below 50% and negative numbers occur (in some assays of this library far below -100).
Many other results are left out here, so strong results are more common than in the screen.
Two or more numbers in one place are separate tests of the same structure; such repeats can differ widely.
A dash means the value is not listed here; it may have been measured.

Mtb cholesterol medium: 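Whole-cell growth test on Mycobacterium tuberculosis, read after 4 days in a medium based on cholesterol and the lipid DPPC; the read-out is not stated. Tested at 50 µM. Higher reads as more growth inhibition (inferred: compounds with an IC50 in retests scored well above the rest). Of about 69,000 compounds tested this way, about 370 (0.54%) reached 50% or more in at least one test.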
Mtb glucose medium: 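Whole-cell growth test on Mycobacterium tuberculosis, read after 3 days in glucose-containing 7H9 medium; the read-out is not stated. Concentration: 50 µM. Higher reads as more growth inhibition (inferred: compounds with an IC50 in retests scored well above the rest). Size under these conditions: about 69,000 compounds, about 760 of them at 50% or above in at least one test.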

| # | Compound | Mtb cholesterol medium | Mtb glucose medium |
|---|---|---|---|
| 1 | `COc1cccc(-c2cc(C(=O)NCCn3nc(C)nc3C)[nH]n2)c1` | - | 20.62% |
| 2 | `CCC(CO)NCc1ccc(-c2ccc(F)c(Cl)c2)o1.Cl` (configuration not stated) | 36.73% | 36.25% and 26.31% |
| 3 | `Cc1ncsc1C(=O)N(C)Cc1ccc(Br)o1` | - | -30.02% |
| 4 | `CC[C@H](C)[C@@H](CO)NC(C)Cc1ccc(Cl)cc1` (some centres not stated) | - | 0.2173% |
| 5 | `O=C(NCC1(c2ccc(F)cc2)CCC1)N1CCC2(CCOCC2)C1` | - | 2.586% and -8.076% |
| 6 | `Cc1cc(F)ccc1CN1CCCC(O)(CN2CCCC2)C1` (configuration not stated) | - | 63.68% |
| 7 | `CNC1CCCN(Cc2noc(C3CC3)n2)C1.Cl` (configuration not stated) | - | 19.42% |
| 8 | `Cc1nc2c(c(NCC(O)c3ccccc3Cl)n1)CCNCC2` (configuration not stated) | - | -5.893% |
| 9 | `O=S(=O)(NCCN1CC=CC1)c1cncc(Cl)c1` | - | 12.81% |
| 10 | `O=C(COc1ccc2c(c1)OCO2)NCc1ccco1` | - | 35.99% |
| 11 | `NC(=O)C1CCN(C(=O)NC2CCc3cc(F)ccc32)CC1` (configuration not stated) | - | -17.57% |
| 12 | `CC(CNC(=O)c1c[nH]nn1)Oc1cccc(Br)c1` (configuration not stated) | 12.34% and 4.715% | -0.994% |
| 13 | `CCCC(C)N(C)Cc1nnc(-c2ccc(Br)s2)o1` (configuration not stated) | 54.19% and 42.92% | 48.23% |
| 14 | `CNC(=O)c1ncn2c1CN(CCC(C)C)S(=O)(=O)c1ccccc1-2` | -7.584% | - |
| 15 | `CN(C)CCN1CCOCC2(C1)CN(Cc1ccsc1)CCO2.O=C(O)C(F)(F)F.O=C(O)C(F)(F)F.O=C(O)C(F)(F)F` (configuration not stated) | 94.79% | - |
| 16 | `Cc1nc(N2CCOCC2)nc2c1CCN(Cc1cccnc1)CC2.O=C(O)C(F)(F)F` | 13.46% | -3.528% |
| 17 | `Cc1nc(-c2ccsc2)ccc1C(=O)N(C)CC(F)(F)F` | - | 14.93% |
| 18 | `CCNC(c1ccc(F)cc1)c1cccnc1` (configuration not stated) | - | -13.53% |
| 19 | `Cc1cc(C(=O)NCCc2nc3c(s2)CCCC3)n(C)n1` | - | 19.63% |
| 20 | `Cc1ccc(CCNc2nc(-c3ccncc3)nc3c2CCNCC3)o1` | - | 20.73% and 18.3% |
| 21 | `CCSC1=Nc2c(cnn2-c2ccc(Cl)cc2)C2=NCCCN12` | 55.74% | 82.44% |
| 22 | `c1cc2c(cc1CSCc1noc(C3CC3)n1)OCCO2` | 18.03% and 31.01% | 28.78% |
| 23 | `CCN(Cc1ccccc1)C(=O)CCN1C[C@@H](C(=O)O)[C@H](C2CC2)C1` | - | -14.9% and 15.43% |
| 24 | `CN1CCN(C(=O)Cc2ccc(S(=O)(=O)C(F)F)cc2)CC1` | 11.49% | 18.62% |
| 25 | `CN1CCN(CC(NCc2cccc(O)c2)c2ccccc2)CC1` (configuration not stated) | - | -3.572% |
| 26 | `CCN(C(=O)CN1CCCC1c1cccs1)c1ccccc1C` (configuration not stated) | - | 58.44% |
| 27 | `CC(C)C(C)N(C)Cc1nnc(-c2ccc(Br)s2)o1` (configuration not stated) | 60.01% and 63.7% | 51.47% |
| 28 | `COc1cccc(COCC(O)CN(C)c2ccc(C)cc2C)c1` (configuration not stated) | 20.39% | - |
| 29 | `O=C(O)C(F)(F)F.c1cnc(N2CCOCC3(CN(Cc4ccsc4)CCO3)C2)nc1` (configuration not stated) | 10.83% | - |
| 30 | `CC(C)Cn1cncc1CNC(=O)c1cccc(CC2CCNCC2)c1` | 4.075% and -11.44% | -27.8% and -2.961% |
| 31 | `Cl.O=C(CCC1CCCC1)N1CCCC(c2ncc3c(n2)CCNC3)C1` (configuration not stated) | - | 53.33% |
| 32 | `O=C(c1ccc(Br)o1)N1CCN(Cc2ccc(F)cc2)CC1` | 37.92% | 54.41% |
| 33 | `CCOc1cccc(COC(=O)c2ccc(Cl)cn2)n1` | - | 37.23% |
| 34 | `NC(=O)Cn1c(SCc2noc(-c3ccsc3)n2)nnc1C1CC1` | - | 8.609% and -2.494% |
| 35 | `COc1ccc(-c2cccc3c2OC(CN)C3)cc1F` (configuration not stated) | - | 39.23% and 49.42% |
| 36 | `Cc1ccc(CN2CCC3(CCCN(S(C)(=O)=O)C3)C2)o1` (configuration not stated) | - | 11.93% |
| 37 | `OC1(CN2CCC(Oc3cccc(C(F)(F)F)c3)CC2)CNCCOC1` (configuration not stated) | - | 31.52% |
| 38 | `COCCC1(CNC(=O)NCC2CCCS2)CCCC1` (configuration not stated) | 57.24% | - |
| 39 | `Cc1[nH]ncc1C(=O)NCC1CCC2(CC1)OCCO2` | 9.829% | 12.41% and -5.693% |
| 40 | `CN(Cc1cccc(F)c1)C(=O)c1ccncc1Cl` | -8.195% | - |
| 41 | `COc1cccc(N2CCC(CNC(=O)NCc3ccco3)C2)c1` (configuration not stated) | - | -13.06% |
| 42 | `COCC(=O)N1CCO[C@]2(CCC[C@H]2COC)C1` | - | -11.48% |
| 43 | `CC(C)c1nc(CN2CCC(c3ccnn3CCO)CC2)no1` | - | -12.89% |
| 44 | `CC(=O)N1CCc2ccc(S(=O)(=O)N3CCCCC3C)cc21` (configuration not stated) | - | 4.29% |
| 45 | `COc1cc2cc(C)c(SCCN3CCCCC3)nc2cc1OC.Cl` | - | 52.64% |
| 46 | `COc1ccccc1N1CCC(CNCc2cccc(OC)c2OC)C1` (configuration not stated) | - | 54.67% |
| 47 | `Cc1ccccc1CN1CCC2(COCc3cnc(N(C)C)nc32)C1.O=C(O)C(F)(F)F` (configuration not stated) | - | 53.3% |
| 48 | `O=C(Nc1ccnc(OC2CCOC2)c1)c1ccc(F)cc1Cl` (configuration not stated) | 7.74% | 7.331% and 6.791% |
| 49 | `OCC(CO)Nc1cccc(C(F)(F)F)n1` | -5.428% | 3.544% |
| 50 | `CN(Cc1ccccc1)CC1(O)CCCN(CCC2CCCCC2)C1=O` (configuration not stated) | - | 90.7% |
| 51 | `Fc1ccc(CN2CCCC(c3cc4ncccc4[nH]3)C2)cc1` (configuration not stated) | 44.6% and 53.67% | - |
| 52 | `COCC(C)(CCO)NC(=O)Nc1cccc(Br)c1C` (configuration not stated) | - | -39.19% |
| 53 | `CCc1nnsc1C(=O)N(C)Cc1ccc(Br)o1` | - | -3.194% |
| 54 | `COc1cc(C(C)=O)ccc1OCC(=O)c1cccn1C` | -5.444% and -23.76% | - |
| 55 | `CCCS(=O)(=O)NCCn1ccc(-c2cccs2)n1` | - | -14.78% |
| 56 | `CCCOc1cc(CNC(=O)Nc2ccccn2)ccn1` | -15.66% | -5.761% |
| 57 | `O=C(c1ccc2c(c1)OCO2)N1CCCSCC1CN1CCCC1` (configuration not stated) | - | 6.975% |
| 58 | `CN(C)C(=O)c1cc(-c2cnc(N)nc2)nc2cc(F)ccc12` | 15.09% | - |
| 59 | `O=C(c1noc2c1CCCC2)N1CCCC(c2nccs2)C1` (configuration not stated) | 16.88% | 25.89% |
| 60 | `CN(C)c1cc(C2CCCN(C(=O)c3noc4c3CCCC4)C2)ccn1` (configuration not stated) | 61.23% | 79.79% |
| 61 | `Cc1n[nH]cc1C(=O)N1CCCC1c1cc[nH]n1` (configuration not stated) | 0.4157% | - |
| 62 | `O=C(NCc1nnc2n1CCCCC2)N(Cc1ccncc1)C1CC1` | 65.4% | - |
| 63 | `CCN(CC)S(=O)(=O)c1ccc(CCC(=O)NCc2cc(C)on2)cc1` | -14.56% | - |
| 64 | `CCC(C)(O)CNc1ccc(S(=O)(=O)C(F)F)cc1` (configuration not stated) | 17.89% | -7.101% |
| 65 | `Nc1cc(N2CCOCC(Cc3ccc4[nH]ccc4c3)C2)ncn1` (configuration not stated) | - | 66.33% |
| 66 | `Cc1nc(C)n(CC2CCCCN2CC(=O)Nc2nncs2)n1` (configuration not stated) | - | 5.844% |
| 67 | `O=C(O)C(F)(F)F.[H][C@@]12COC[C@@H](C(=O)Nc3cnccn3)[C@]1([H])CN(C1CCCC1)C2` | -12.28% and -1.61% | - |
| 68 | `CC1=C(C(=O)N(C)Cc2noc3c2CCCC3)C(C)NC(=O)N1` (configuration not stated) | -15.59% and 0.5571% | - |
| 69 | `COc1ccccc1-c1ncc(CN2CCCC[C@H](N(C)C)C2)s1` | - | 50.2% |
| 70 | `COc1ccc(CCNC(=O)C(C)Nc2cccc(C)c2C)cc1` (configuration not stated) | -18.87% | - |
| 71 | `CCN(CCn1cccn1)Cc1nc(-c2cccs2)oc1C` | - | 12.02% and -4.039% |
| 72 | `Cc1cccc(-c2ccc(C(=O)N3CCN(C(C)C)CC3)c(=O)[nH]2)c1` | - | 5.196% and -7.551% |
| 73 | `COC(=O)COc1cc(NCc2c(C)noc2C)c(Cl)cc1C` | 111.6% | 106.6% |

8 of the entries, repeated:

| Compound | Mtb cholesterol medium | Mtb glucose medium |
|---|---|---|
| `O=C(O)C(F)(F)F.c1cnc(N2CCOCC3(CN(Cc4ccsc4)CCO3)C2)nc1` (configuration not stated) | 10.83% | - |
| `Fc1ccc(CN2CCCC(c3cc4ncccc4[nH]3)C2)cc1` (configuration not stated) | 44.6% and 53.67% | - |
| `CCN(CCn1cccn1)Cc1nc(-c2cccs2)oc1C` | - | 12.02% and -4.039% |
| `NC(=O)C1CCN(C(=O)NC2CCc3cc(F)ccc32)CC1` (configuration not stated) | - | -17.57% |
| `CCC(CO)NCc1ccc(-c2ccc(F)c(Cl)c2)o1.Cl` (configuration not stated) | 36.73% | 36.25% and 26.31% |
| `CCN(C(=O)CN1CCCC1c1cccs1)c1ccccc1C` (configuration not stated) | - | 58.44% |
| `Cl.O=C(CCC1CCCC1)N1CCCC(c2ncc3c(n2)CCNC3)C1` (configuration not stated) | - | 53.33% |
| `CCCS(=O)(=O)NCCn1ccc(-c2cccs2)n1` | - | -14.78% |